Pooled drug test results. Numbers come from NIAID ChemDB, via PubChem.

Common to all: growth or infection tests; agent: HIV-1; endpoint: EC50

a–b is a range or a potency band.

compound,mutations,read by,cell line,conditions,strain,result
Clc1cc(/C=C/c2ccc(OCc3ccccc3)cc2)nc2ccccc12,-,luminescence,TZM-bl,-,UG070,77.99 µM
CCC(=O)C1=C(CCC2CCCCCC2)NC(=O)N[C@H]1c1ccc(O)c(Cl)c1,-,p24 / ELISA,CEM,-,-,>5 µM
Cc1ccc(S(=O)(=O)Nc2cccc3c(C(=O)C(=O)N4CCN(C(=O)c5ccccc5)C[C@H]4C)c[nH]c23)cc1,-,luciferase / reporter gene,HeLa,-,-,1–5 µM
CCC1=C(c2nc(C3CCCCC3)cs2)C(c2ccc(O)cc2)NC(=O)N1,-,p24 / ELISA,CEM,-,-,≤1 µM
CC1=C(C(=O)Nc2ccc(Cl)c(C(=O)OC(C)C)c2)SCCO1,RT-V106A,syncytia,CEM,-,Nevirapine-resistant (RT V106A),>20 µg/mL
CCC(C)[C@@H](C(=O)N[C@@H](Cc1ccccc1)[C@H](O)CN(CC1CCCC1)S(=O)(=O)c1ccc(/C=N/O)cc1)N1CCN(Cc2cccc(COC)n2)C1=O,PR-L10F V32I M46I I47V Q68E I84V,cytopathic effect / MTT,MT-4,-,A17 (LPV-resistant),0.001 µM
N#CC(=C1CCN(C(=O)C(=O)c2c[nH]c3c(NC(=O)NCCCCCC(=O)O)cccc23)CC1)c1ccccc1,-,luciferase / reporter gene,HeLa,-,-,<1 µM
CCCOC(=O)c1cc(NC(=O)C2=C(C)OCCS2)ccc1Cl,RT-V106A,syncytia,CEM,-,Nevirapine-resistant (RT V106A),6 µg/mL
CC(C)C1=C(C(=O)OCC2CCCCC2)C(c2cccc(O)c2)NC(=O)N1,-,p24 / ELISA,CEM,-,-,>5 µM
CN1CCN(C(=O)c2ccc3c(=O)c4ccccc4[nH]c3c2)CC1,RT-V106A,syncytia,CEM,-,Nevirapine-resistant (RT V106A),0.65 µg/mL
CCC(C)[C@@H](C(=O)N[C@@H](Cc1ccccc1)[C@H](O)CN(CC1CCCC1)S(=O)(=O)c1ccc(/C=N/O)cc1)N1CCN(Cc2cccc(C)n2)C1=O,-,cytopathic effect / MTT,MT-4,-,-,0.0005 µM
CCCCOC(=O)c1cc(NC(=O)C2=C(C)OCCS2)ccc1Cl,RT-E138K,syncytia,CEM,-,TSAO-resistant (RT E138K),3.5 µg/mL
COc1ccc(S(=O)(=O)N(CC(C)C)C[C@@H](O)[C@H](Cc2ccccc2)NC(=O)[C@H](C(C)C)N2CC(=O)N(Cc3ccccc3)C2=O)cc1,-,cytopathic effect / MTT,MT-4,50% human serum,-,0.032 µM
COc1ccc(/C=C/c2cc(Cl)c3cc(Cl)ccc3n2)c(OC)c1,-,p24 / ELISA,PBMC,-,VB51,1.11 µM
CC(C)OC(=O)OCOP(=O)(CO[C@H](C)Cn1cnc2c(N)ncnc21)OCOC(=O)OC(C)C,-,p24 / ELISA,C8166,-,KM018,0.00384 µM
C=C(Cl)COc1cc(NC(=S)c2ccoc2C)ccc1C,RT-V106A,syncytia,CEM,-,Nevirapine-resistant isolate (RT V106A),0.67 µg/mL
Cc1nc2ccccc2c(-c2ccc(Cl)cc2)c1C(OC(C)C)C(=O)O,-,luciferase / reporter gene,C8166,-,-,<20 µM
CCCCCOC(=O)c1cc(NC(=O)C2=C(C)OCCS2)ccc1Cl,RT-Y181C,syncytia,CEM,-,PYR-resistant (RT Y181C),0.6 µg/mL
Cc1ccc(-c2ccc3c(c2)C=C(C(=O)Nc2ccc(C[N+](C)(C)C4CCOCC4)cc2)CCC3)cc1,-,p24,PBMC,-,Du204 CLADE C,<1 µM
COc1cc(-c2ccc(N=Nc3ccc4c(S(=O)(=O)O)cc(S(=O)(=O)O)c(N)c4c3O)c(OC)c2)ccc1N=Nc1ccc2c(S(=O)(=O)O)cc(S(=O)(=O)O)c(N)c2c1O,-,RT activity,CEM + CEM-SS,-,IIIB,1.8 µM
O=C1NC(CCO)=C(C(=O)OCC2CCCCC2)C(c2cccc(O)c2)N1,-,p24 / ELISA,CEM,-,-,>5 µM
N#CC(=C1CCN(C(=O)C(=O)c2c[nH]c3c(NC(=O)Nc4cccc(C(=O)O)c4)cccc23)CC1)c1ccccc1,-,luciferase / reporter gene,HeLa,-,-,<1 µM
Cc1occc1C(=S)Nc1ccc(Cl)c(OCC=C(Cl)Cl)c1,RT-Y188H,syncytia,CEM,-,HEPT-resistant (RT Y188H),2 µg/mL
COc1ccc(C)cc1CS(=O)(=O)c1cccc[n+]1[O-],RT-K103N,syncytia,CEM,-,IIIB,44 µg/mL
CCO[C@H](C(=O)O)c1c(C)nc2ccc(Cl)cc2c1-c1ccc(CC)cc1,-,luciferase / reporter gene,C8166,-,-,<20 µM
CCC1=C(C(=O)OCC2CCCCC2)C(c2ccc(N(C)C)cc2)NC(=O)N1,-,p24 / ELISA,CEM,-,-,≤1 µM
C/C(Cl)=C/COc1cc(NC(=O)c2ccoc2C)ccc1Cl,RT-Y181C,syncytia,CEM,-,Pyridone-resistant (RT Y181C),0.65 µg/mL
COc1ccc(/C=C/c2cc(Cl)c3ccccc3n2)c(OC)c1,-,luminescence,TZM-bl,-,VB59,3.99 µM
CCCC(C(=O)O)c1c(C)nc2ccc(Cl)cc2c1-c1cccs1,-,luciferase / reporter gene,C8166,-,-,<20 µM
Cc1nnc(-c2cccc(-c3cccc(C(=O)N4CCCCC4)c3)c2)o1,-,luminescence,TZM-bl,pseudotyped,CE1176,>30 µM
CCCC(C(=O)O)c1c(C)nc2ccc(Br)cc2c1-c1ccc(Cl)cc1,-,luciferase / reporter gene,C8166,-,-,<20 µM
Cc1ccc(C)c(CS(=O)c2ccc(Cl)c[n+]2[O-])c1,RT-E138K,syncytia,CEM,-,IIIB,9.5 µg/mL
Clc1ccc2nc(/C=C/c3ccc(N4CCOCC4)cc3)cc(Cl)c2c1,-,luminescence,TZM-bl,-,UG070,97.85 µM
CCC(C)[C@@H](C(=O)N[C@@H](Cc1ccccc1)[C@H](O)CN(CC(C)C)S(=O)(=O)c1ccc(/C=N/O)cc1)N1CCN(Cc2cccnc2)C1=O,-,cytopathic effect / MTT,MT-4,-,-,0.004 µM
N#CC1=CC2Nc3ccccc3C2N(c2ccc([N+](=O)[O-])cc2)C1=O,-,GFP / fluorescence,HeLa,-,1617-1,0.87 µM
CCC(C)[C@@H](C(=O)N[C@@H](Cc1ccccc1)[C@H](O)CN(CC(C)C)S(=O)(=O)c1ccc(/C=N/O)cc1)N1CCN(Cc2cccc(C(C)C)n2)C1=O,-,cytopathic effect / MTT,MT-4,50% human serum,-,0.026 µM
CCC1=C(C(=O)OCC2CCCCC2)C(c2cc(O)c(O)c(O)c2)NC(=O)N1,-,p24 / ELISA,CEM,-,-,>5 µM
CC(C)OC(=S)Nc1ccc(Cl)c(OC(=O)C(C)C)c1,-,syncytia,CEM,-,IIIB,28 µM
CCCc1cc(=O)oc2c3c(c4c(c12)OC(C)(C)CC4)O[C@@H](C)[C@H](C)[C@@H]3O,RT-T139I,XTT,CEM + CEM-SS,-,Calanolide A-resistant (RT T139I),>20 µM
CC1=C(C(=O)Nc2cc(C(=O)OC(C)C)c(F)cc2F)SCCO1,RT-L100I,syncytia,CEM,-,TIBO-resistant (RT L100I),>10 µg/mL
CCCC(C(=O)O)c1c(C)nc2ccc(Cl)cc2c1-c1cccc(OC)c1,-,luciferase / reporter gene,C8166,-,-,<20 µM
CCCC1=C(C(=O)Nc2ccc(Cl)c(C(=O)OCC)c2)SCCO1,RT-L100I,syncytia,CEM,-,TIBO-resistant (RT L100I),0.55 µg/mL
O=S(=O)(Cc1ccccc1I)c1cccc[n+]1[O-],RT-E138K,syncytia,CEM,-,IIIB,15 µg/mL
CCOC(=O)c1cc(NC(=O)C2=C(CC)OCCS2)ccc1Cl,RT-Y181C,syncytia,CEM,-,PYR-resistant (RT Y181C),7 µg/mL
Cc1nc2ccccc2c(-c2ccc(CF)cc2)c1[C@H](OC(C)(C)C)C(=O)O,-,luciferase / reporter gene,C8166,-,-,<20 µM
CC(=O)c1c(C)nc(-c2ccccc2)nc1NC(=O)c1ccccc1,-,GFP / fluorescence,HeLa,-,6463-13,0.04 µM
COC(C(=O)O)c1c(C)nc2ccc(Cl)cc2c1-c1ccc(C(F)(F)F)cc1,-,luciferase / reporter gene,C8166,-,-,<20 µM
COc1ccc(NC(=S)C2=C(C)OCCS2)cc1OCC=C(Cl)Cl,-,syncytia,CEM,-,IIIB,0.27 µg/mL
C[C@@H]1CN(C(=O)c2ccccc2)CCN1C(=O)C(=O)c1c[nH]c2c(NC(=O)Nc3ccc(C(=O)C(F)(F)F)cc3)cccc12,-,luciferase / reporter gene,HeLa,-,-,<1 µM
CCC1=C(C(=O)OCC2CCCCC2)[C@H](c2ccc([NH3+])cc2)NC(=O)N1,-,p24 / ELISA,CEM,-,-,≤1 µM
CCC(=O)Oc1ccc(NC(=O)C2=C(C)OCCS2)cc1C(=O)OC(C)C,-,syncytia,CEM,-,IIIB,4.5 µg/mL

Repeating the final 6 entries:

{"compound": "CC(=O)c1c(C)nc(-c2ccccc2)nc1NC(=O)c1ccccc1", "read by": "GFP / fluorescence", "cell line": "HeLa", "strain": "6463-13", "result": "0.04 µM"}
{"compound": "COC(C(=O)O)c1c(C)nc2ccc(Cl)cc2c1-c1ccc(C(F)(F)F)cc1", "read by": "luciferase / reporter gene", "cell line": "C8166", "result": "<20 µM"}
{"compound": "COc1ccc(NC(=S)C2=C(C)OCCS2)cc1OCC=C(Cl)Cl", "read by": "syncytia", "cell line": "CEM", "strain": "IIIB", "result": "0.27 µg/mL"}
{"compound": "C[C@@H]1CN(C(=O)c2ccccc2)CCN1C(=O)C(=O)c1c[nH]c2c(NC(=O)Nc3ccc(C(=O)C(F)(F)F)cc3)cccc12", "read by": "luciferase / reporter gene", "cell line": "HeLa", "result": "<1 µM"}
{"compound": "CCC1=C(C(=O)OCC2CCCCC2)[C@H](c2ccc([NH3+])cc2)NC(=O)N1", "read by": "p24 / ELISA", "cell line": "CEM", "result": "≤1 µM"}
{"compound": "CCC(=O)Oc1ccc(NC(=O)C2=C(C)OCCS2)cc1C(=O)OC(C)C", "read by": "syncytia", "cell line": "CEM", "strain": "IIIB", "result": "4.5 µg/mL"}

ECn: concentration that inhibits the pathogen or its effect by n%. Neighbouring rows are from separate reports. Blank or dashed fields: not listed here.